A mixed list of measured activities; the numbers were collected in NIAID ChemDB.

Shared fields: growth or infection tests; species: Mycobacterium tuberculosis

Percent inhibition refers to the dose given; in toxicity tests it is the harm to the cells.

SMILES	read by	changes	strain	cell line	dose	setting	measure	value
CC(NC(=O)C1CCC(=O)N1)C(=O)N1CCCC1C(N)=O	resazurin		H37Rv				MIC bound	>6.25 µg/mL
CC(C)=CCC/C(C)=C/CNCCNC(C)C12CC3CC(CC(C3)C1)C2							MIC	25 µM
COc1ccc2oc(=O)n(-c3ccc(C)cc3)c(=O)c2c1			CNCTC MY331/88				MIC	62.5 µM
CC1COc2c(N3CCN(C)CC3)c(F)cc3c(=O)c(C(=O)O)cn1c23			H37Rv				MIC	0.25 µg/mL
CCOC(=O)Nc1cc2ncc(CN(C)c3ccccc3)nc2c(N)n1			H37Rv				EC50	<12.5 µg/mL
Cc1ccccc1CSc1ccccn1			H37Ra				MIC	>12.8 µg/mL
Cc1nn(CCO)c(N)c1C(N)=O	BACTEC		H37Rv		12.5 µg/mL		inhibition	0%
CO[C@H]1/C=C/O[C@@]2(C)Oc3c(C)c(O)c4c(=O)c(c5oc6cc(N7CCN(CC(C)C)CC7)cc(=O)c6nc5c4c3=C2O)NC(=O)/C(C)=C\C=C\[C@H](C)[C@H](O)[C@@H](C)[C@@H](O)[C@@H](C)[C@H](OC(C)=O)[C@@H]1C			FUJII		5 µg/mL	inside macrophages	inhibition	96.1%
COC(=O)c1ccccc1N=NNc1ccc(C)c(Cl)c1	BACTEC		H37Rv		12.5 µg/mL		inhibition	16%
Cc1c(CSc2nc(=O)[nH]c3nc[nH]c23)cccc1[N+](=O)[O-]			H37Ra				MIC	8 µg/mL
CCCNc1nc2c(s1)c1c(O)c3c(O)c(C)c4c(c32)C(=O)[C@@](C)(O/C=C/[C@H](OC)[C@@H](C)[C@@H](OC(C)=O)[C@H](C)[C@H](O)[C@H](C)[C@@H](O)[C@@H](C)/C=C/C=C(/C)C(=O)N1)O4			H37Rv	VERO			MIC	≤0.1 µg/mL
COc1ccc(-n2c(=O)oc3cc(C)ccc3c2=O)cc1			CNCTC MY331/88				MIC	16 µM
CCOC(=O)Nc1cc2c(c(N)n1)N=C(c1ccccc1)[C@@H](CC)N2			H37Rv				EC50	>12.5 µg/mL
C/C=C1/C[C@@H](C)[C@](C)(O)C(=O)OC[C@@H]2[C@@H]3[C@@H](CCN3C[C@H]2O)OC1=O	BACTEC		H37Rv				MIC bound	>12.5 µg/mL
Cc1cccc(C)c1Sc1nc(Cl)nc2nc[nH]c12			H37Rv				MIC90	>6.25 µg/mL
CO[C@H]1/C=C/O[C@@]2(C)Oc3c(C)c(O)c4c(O)c(c5c(c4c3C2=O)NC2(CCN(CC(C)C)CC2)N=5)=NC(=O)/C(C)=C\C=C\[C@H](C)[C@H](O)[C@@H](C)[C@@H](O)[C@@H](C)[C@H](OC(C)=O)[C@@H]1C			Strain 82 (R529K)				MIC	0.25 µg/mL
c1ccc(C(CNCCNC2CCCCCCC2)c2ccccc2)cc1							MIC	3.13 µM
CO[C@H]1/C=C/O[C@@]2(C)Oc3c(C)c(O)c4c(O)c(c(/C=N/N5CCN(C)CC5)c(O)c4c3C2=O)NC(=O)/C(C)=C\C=C\[C@H](C)[C@H](O)[C@@H](C)[C@@H](O)[C@@H](C)[C@H](OC(C)=O)[C@@H]1C			91196				MIC	≥2 µg/mL
CC(C)=CCC/C(C)=C/CNCCNCC12CC3CC(CC(C3)C1)C2							MIC	25 µM
CO/C(C)=C1/NC(=O)[C@H]([C@@H](C)O)NC(=O)c2csc(n2)-c2cc(O)c(-c3nc(C(=O)NNC4CCN(C)CC4)cs3)nc2-c2csc(n2)[C@@H]2COC(=O)c3c4c5c(cccc5n3O)COC(=O)[C@@H](O[C@H]3C[C@](C)(O)[C@H](N(C)C)[C@H](C)O3)[C@@H](OC4)[C@H](NC(=O)c3csc1n3)c1nc(cs1)C(=O)N2	broth dilution		H37Rv				MIC	≤10 µM
O=C1C2CSCN2C(=O)C2CSCN12	resazurin		H37Rv		6.25 µg/mL		inhibition	-6%
C[C@@H]1CN(c2c(F)c(N)c3c(=O)c(C(=O)O)cn(C4CC4)c3c2F)C[C@H](C)N1			ATCC 35820				MIC	0.06 µg/mL
O=c1nc(SCc2ccccn2)c2[nH]cnc2[nH]1			H37Ra				MIC	>12.8 µg/mL
CC[C@H]1OC(=O)[C@H](C)[C@@H](O[C@H]2C[C@@](C)(OC)[C@@H](O)[C@H](C)O2)[C@H](C)[C@@H](O[C@@H]2O[C@H](C)C[C@H](N(C)C)[C@H]2O)[C@](C)(O)C[C@@H](C)CN(C)[C@H](C)[C@@H](O)[C@]1(C)O			ATCC 35820				MBC	>8 µg/mL
Clc1nc(Sc2ncc[nH]2)c2[nH]cnc2n1			H37Rv				MIC90	>6.25 µg/mL
C/C(=N\NC(=O)c1ccncc1)c1ccccc1F			Rifampicin-resistant				MBC	0.39 µg/mL
CC(C)=CCC/C(C)=C/CNCCNCCc1cccs1							MIC	50 µM
NNC(=O)c1ccncc1			41494				MIC	≥0.2 µg/mL
O=C(NNCc1ccccc1)c1ccncc1			Isoniazid-resistant				MBC	>6.25 µg/mL
COCCCn1c2c([n+](Cc3ccc([N+](=O)[O-])cc3)c1C)C(=O)c1ccccc1C2=O	resazurin		H37Rv		6.25 µg/mL		inhibition	101%
CCCCC(CC)CN1CN(CC(CC)CCCC)CC(C)(NCCN[C@H]2C[C@H]3C[C@@H]([C@@H]2C)C3(C)C)C1							MIC	50 µM
S=C(S)N1CCCCCC1	resazurin		H37Rv				MIC bound	<6.25 µg/mL
CC(C)c1ccc2c(c1)CC[C@H]1[C@](C)(CNCCNCCc3cccc(F)c3)CCC[C@]21C							MIC	12.5 µM
CO/C(C)=C1/NC(=O)[C@H]([C@@H](C)O)NC(=O)c2csc(n2)-c2cc(O)c(-c3nc(C(=O)NCCCN4CCOCC4)cs3)nc2-c2csc(n2)[C@@H]2COC(=O)c3c4c5c(cccc5n3O)COC(=O)[C@@H](O[C@H]3C[C@](C)(O)[C@H](N(C)C)[C@H](C)O3)[C@@H](OC4)[C@H](NC(=O)c3csc1n3)c1nc(cs1)C(=O)N2	broth dilution		Clinical 12556				MIC	≤2.5 µM
CCCCC(CC)CN1CN(CC(CC)CCCC)CC(C)(NCCNCCc2ccccc2)C1							MIC	6.25 µM
CCN(CC)C(=S)[S][Bi]([S]C(=S)N(CC)CC)[S]C(=S)N(CC)CC			INH-r				MIC	0.8 µg/mL
C=C(NC(=O)c1csc(-c2nc3c(cc2O)-c2nc(cs2)C(=O)N[C@@H]([C@@H](C)O)C(=O)N/C(=C(\C)OC)c2nc(cs2)C(=O)N[C@@H]2c4nc(cs4)C(=O)N[C@@H](COC(=O)c4c5c6c(cccc6n4O)COC(=O)[C@@H](O[C@H]4C[C@](C)(O)[C@H](N(C)C)[C@H](C)O4)[C@H]2OC5)c2nc-3cs2)n1)C(N)=O	broth dilution		Clinical isolate 12556				MIC	≤2.5 µM
CCCCOP(=S)(OCCCC)SC1(SC)SSC=C1CC(C)(C)C	BACTEC		H37Rv				MIC bound	>12.5 µg/mL
COc1ccc2c(=O)n(-c3ccc(C#N)cc3)c(=O)oc2c1			CNCTC MY331/88				MIC	32 µM
Cc1ccn2c(N=O)c(-c3ccccc3)nc2c1	BACTEC		H37Rv		12.5 µg/mL		inhibition	98%
NC[C@H]1O[C@H](O[C@H]2[C@H](O)[C@@H](O[C@H]3O[C@H](CO)[C@@H](O)[C@H](N)[C@H]3O)[C@H](N)C[C@@H]2N)[C@H](O)[C@@H](O)[C@@H]1O			TN3605 (W1)				MIC	>256 µg/mL
COc1ccccc1Sc1ncccn1			H37Rv		6.25 µg/mL		inhibition	2%
CO[C@H]1/C=C/O[C@@]2(C)Oc3c(C)c(O)c4c(O)c(c(/C=N/N5CCN(C)CC5)c(O)c4c3C2=O)NC(=O)/C(C)=C\C=C\[C@H](C)[C@H](O)[C@@H](C)[C@@H](O)[C@@H](C)[C@H](OC(C)=O)[C@@H]1C	broth dilution	Rifampicin- and isoniazid-resistant	Clinical isolate 18460				MIC	≤10 µM
COc1cc(C(=O)OC(CN2CCOCC2)Cn2nnc3c(OC)c(OC)c(OC)cc3c2=O)cc(OC)c1OC	BACTEC		H37Rv		12.5 µg/mL		inhibition	7%
CCOC(=O)Nc1cc(Nc2ccc(Cl)cc2)c2nccnc2n1			H37Rv				EC50	<12.5 µg/mL
CO[C@H]1/C=C/O[C@@]2(C)Oc3c(C)c(O)c4c(O)c(c5c(c4c3C2=O)NC2(CCN(CC(C)C)CC2)N=5)=NC(=O)/C(C)=C\C=C\[C@H](C)[C@H](O)[C@@H](C)[C@@H](O)[C@@H](C)[C@H](OC(C)=O)[C@@H]1C			2237 (rifampicin-susceptible)				MIC	0.031 µg/mL
C=CC(C)(O)CCCCCCCCCCC	resazurin		H37Rv				MIC bound	>6.25 µg/mL
CO[C@H]1/C=C/O[C@@]2(C)Oc3c(C)c(O)c4c(O)c(c(/C=N/N5CCN(C)CC5)c(O)c4c3C2=O)NC(=O)/C(C)=C\C=C\[C@H](C)[C@H](O)[C@@H](C)[C@@H](O)[C@@H](C)[C@H](OC(C)=O)[C@@H]1C			TN807				MIC	>32 µg/mL
Cc1ccc(CSc2ncccn2)cc1			H37Rv				MIC90	>6.25 µg/mL
CCOC(=O)Nc1cc(NCC(=O)CN(C)c2ccccc2)c([N+](=O)[O-])c(N)n1			H37Rv				EC50	>12.5 µg/mL
O=C(NC(Cc1ccc(O)cc1)C(=O)N=Nc1c(O)[nH]c2ccccc12)c1ccccc1	BACTEC		H37Rv				MIC	≥12.5 µg/mL
CC(NNC(=O)c1ccncc1)c1cccc(C(F)(F)F)c1			Isoniazid-resistant				MIC	>50 µg/mL
CO[C@H]1/C=C/O[C@@]2(C)Oc3c(C)c(O)c4c(O)c(c5c(c4c3C2=O)NC2(CCN(CC(C)C)CC2)N=5)=NC(=O)/C(C)=C\C=C\[C@H](C)[C@H](O)[C@@H](C)[C@@H](O)[C@@H](C)[C@H](OC(C)=O)[C@@H]1C			Isolate 900241 drug-susceptible				MIC	0.125 µg/mL
NNC(=O)c1ccncc1	broth dilution	Rifampicin- and isoniazid-resistant	Clinical isolate 10975				MIC	>10 µM
Cc1cccc(C)c1Sc1ncnc2nc[nH]c12			H37Ra				MIC	>12.8 µg/mL
O=c1oc2ccc([N+](=O)[O-])cc2c(=O)n1-c1ccc(F)cc1			CNCTC MY331/88				MIC	31 µM
O=Nc1c(NO)n(-c2ccccc2)c(=S)n1-c1ccccc1	BACTEC		H37Rv				MIC bound	>12.5 µg/mL
NC1CCN(c2c(F)cc3c(=O)c(C(=O)O)cn(C4CC4)c3c2Cl)C1			ATCC35838				MBC	0.125 µg/mL
CC(=O)N=c1ccc2nc3c(cc(N)c4ccccc43)oc-2c1.Cl	BACTEC		H37Rv				MIC	≥12.5 µg/mL
CCCCCCCCCCCNCCNC1CCCc2ccccc21							MIC	25 µM
CCOC(=O)Nc1cc(NN)c([N+](=O)[O-])c(NC(=O)OCC)n1			H37Rv				EC50	>12.5 µg/mL
C/C(=N\NC(=O)c1ccncc1)c1ccccc1			H37Rv (isoniazid-resistant)				MIC	>32 µg/mL
CC1=NN(C(=O)c2ccc(Cl)cc2)C(=O)C1N=Nc1ccc(S(=O)(=O)Nc2ccccn2)cc1	BACTEC		H37Rv		12.8 µg/mL		inhibition	21%
O=C(NNCc1ccccc1F)c1ccncc1			H37Rv (ciprofloxacin-resistant)				MIC	3.9 µg/mL
CC1(C)OCC(C2OC3OC(C)(C)OC3C2N)O1	BACTEC		H37Rv				MIC bound	>12.5 µg/mL
CO[C@H]1/C=C/O[C@@]2(C)Oc3c(C)c(O)c4c(O)c(c(/C=N/N5CCN(C)CC5)c(O)c4c3C2=O)NC(=O)/C(C)=C\C=C\[C@H](C)[C@H](O)[C@@H](C)[C@@H](O)[C@@H](C)[C@H](OC(C)=O)[C@@H]1C			PR503				MIC	0.08 µg/mL
c1ccc(-c2cc[n+]3c4c2ccc2c(-c5ccccc5)cc[n+](c24)CC3)cc1	BACTEC		H37Rv				MIC bound	>12.5 µg/mL
O=C(N/N=C/c1cccc(C(F)(F)F)c1)c1ccncc1			H37Rv				MBC	>3.2 µg/mL
CC(C)(C)C(=O)ON1N=NC2C3CC(OCc4ccccc4)(OCc4ccccc4)C(O3)C21	BACTEC		H37Rv				MIC bound	>12.5 µg/mL
CC(C)c1ccc2c(c1)CC[C@H]1[C@](C)(CNCCN[C@H]3C[C@@H]3c3ccccc3)CCC[C@]21C							MIC	50 µM

A number after MIC or MFC names an inhibition level or a share of isolates. Lines come from different laboratories, so protocols vary. An empty or dashed field is not shown. ECn: concentration that inhibits the pathogen or its effect by n%. MIC bound comes from a single tested concentration.